Anti-infective test results gathered from many reports (values: NIAID ChemDB through PubChem).

All rows: host cell toxicity; read-out: CC50

Lines come from different laboratories, so protocols vary. Two numbers with a dash give a range or band. CCn: concentration that lowers growth or viability of the cells by n%. An empty or dashed field is not shown.

structure | cell line | read by | result
NC(=O)c1nn(Cc2cccc(NC(=O)C3CC3)c2)c2ccccc12 | Huh7.5.1 | MTT | >10 µM
O=c1cnn([C@@H]2O[C@H](CO)[C@@H](O)[C@H]2O)c(=O)[nH]1 | MA-104 | - | 25 µg/mL
CN[C@H]1C[C@@]23CC[C@@]4(O2)C(=CC[C@]2(C)C(c5ccc6ccncc6c5)=CC[C@H]24)C=C3[C@@H](O)[C@@H]1O | HUVEC | ATP | <0.1 µM
CC(=O)OC[C@H]1O[C@@H](n2ncc(=O)[nH]c2=O)[C@H](OC(C)=O)[C@@H]1OC(C)=O | MA-104 | - | 14 µg/mL
Nc1nccc2c1ncn2[C@@H]1O[C@H](CO)[C@@H](O)[C@H]1O | PRK/E6SM | - | 400 µg/mL
Cc1cccc2c1N=C(c1ccccc1)C2CN1CCC(NS(C)(=O)=O)C1 | THP-1 | - | >64 µM
NC(=NC1CCCCC1)c1ccc(-c2ccc(-c3ccc(C(N)=NC4CCCCC4)cc3)o2)cc1 | A2780 ovarian carcinoma | - | 4.8 µM
CSc1ccccc1NC(=O)NC1N=C(c2ccccc2)c2ccccc2NC1=O | HEP-2 | - | 2 µM
Nc1ncnc2c1ncn2C[C@@H](CO)OCP(=O)(O)O | TPA-stimulated BCBL-1 | - | 58 µM
O=[N+]([O-])c1ccc(-c2nc(SCC3CC3)n[nH]2)cc1 | Panc-1 | MTT | >100 µg/mL
Nc1ncnc2c1ncn2[C@H]1C[C@@H](O)[C@@H](CO)O1 | PRK/E6SM | - | >400 µg/mL
CC(=O)NC[C@@H](C=O)NC(=O)[C@H](Cc1ccccc1)NC(=O)[C@H](CC(C)C)NC(=O)OCc1ccccc1 | H1-HELA | - | 316 µM
COc1ccc2c(c1)CCCN2CCC(=O)N1CCN(c2ccc(C)cc2)CC1 | CD4+ T-cell | MTT / absorbance | 86.18 µg/mL
CCCCSc1n[nH]c(-c2ccccc2C)n1 | THP-1 | MTT | >100 µg/mL
CCCCCC(=O)O[C@H]1C[C@H](n2cc(/C=C/Br)c(=O)[nH]c2=O)O[C@@H]1COP1(=O)OCc2cccc(C)c2O1 | P3HR-1 | - | >200 µg/mL
Nc1ncnc2c1ncn2CCOCP(=O)(O)O | CD4+ T lymphocytes | - | 54 µM
O=c1oc2ccccc2c2c1C(c1ccccn1)c1c(c3ccccc3oc1=O)O2 | SupT1 | MTT / absorbance | >1000 µM
CN(C)[C@H]1C[C@@]23CC[C@@]4(O2)C(=CC[C@]2(C)C(C(=O)Nc5cccnc5)=CC[C@H]24)C=C3[C@@H](O)[C@@H]1O | HUVEC | ATP | >1 µM
CCNC(=O)NC1N=C(c2ccccc2)c2ccccc2NC1=O | HEP-2 | - | 2 µM
C[C@]12CC=C3C=C4[C@@H](O)[C@H](O)[C@@H](N)C[C@]45CC[C@]3(O5)[C@@H]1CC=C2c1ccc2ccncc2c1 | HUVEC | ATP | 0.1–1 µM
CCC/C=C1\OC(=O)C2=C1CC[C@H]1[C@H]3C=C4C(=O)O/C(=C\CCC)[C@@]4(CC3)[C@@H]21 | RAW 264.7 | - | 200 µg/mL
NC(=O)c1nn(Cc2ccc(N)cc2)c2ccccc12 | Huh7.5.1 | MTT | >10 µM
CO[C@H]1C[C@H](n2cc(/C=C/Br)c(=O)[nH]c2=O)O[C@@H]1COP1(=O)OCc2cccc(C)c2O1 | P3HR-1 | - | >100 µg/mL
Nc1ncnc2c1ccn2[C@@H]1O[C@H](CSCCC(NC(=O)C(F)(F)F)C(=O)O)[C@@H](O)[C@H]1O | PRK/E6SM | - | 400 µg/mL
Cc1ccnc2c1NC(=O)c1cccnc1N2C1CC1 | Lymphocytes | - | >20 µM
Nc1ccc(-c2nc(=S)[nH][nH]2)cc1 | THP-1 | MTT | >100 µg/mL
COc1ccc2c(c1)CCCN2CCC(=O)N1CCN(c2ccccc2F)CC1 | CD4+ T-cell | MTT / absorbance | 82.89 µg/mL
Nc1ccc(C(=O)O)c(O)c1 | HepG2 cells | MTT | 2240 µM
O=C(O)P(=O)(O)O | TPA-stimulated BCBL-1 | - | ≥140 µM
CN(C)[C@H]1C[C@@]23CC[C@@]4(O2)C(=CC[C@]2(C)C(c5ccc6nc(N)ncc6c5)=CC[C@H]24)C=C3[C@@H](O)[C@@H]1O | HUVEC | ATP | <0.1 µM
Cc1ccc(C(=O)Nc2cccc(Cn3nc(C(N)=O)c4ccccc43)c2)cc1 | Huh7.5.1 | MTT | >10 µM
CCOc1ccccc1C(=O)NC1N=C(c2ccccc2)c2ccccc2NC1=O | HEP-2 | - | 0.7 µM
O=c1[nH]c(=O)n([C@H]2C[C@H](F)[C@@H](CO)O2)cc1/C(Cl)=C/I | PBM | - | 18.4 µM
CC(=O)N(C)[C@H]1C[C@@]23CC[C@@]4(O2)C(=CC[C@]2(C)C(c5ccc6ccncc6c5)=CC[C@H]24)C=C3[C@@H](O)[C@@H]1O | HUVEC | ATP | >1 µM
CC1(C)C=CC[C@@]2(C)CC(CO)C(C)(C)[C@H]12 | RAW 264.7 | - | 125 µg/mL
O=c1oc2ccccc2c2c1C(c1ccncc1)c1c(c3ccccc3oc1=O)O2 | SupT1 | MTT / absorbance | >1000 µM
CCCOC(=O)C(N)CCSC[C@H]1O[C@@H](n2ccc3c(N)ncnc32)[C@H](O)[C@@H]1O | PRK/E6SM | - | 400 µg/mL
COc1cccc(N2CCN(C(=O)CCN3CCCc4cc(OC)ccc43)CC2)c1 | CD4+ T-cell | MTT / absorbance | 110 µg/mL
CC(=O)CCCCn1c(=O)c2c(ncn2C)n(C)c1=O | A3.5 | - | >>1000 µM
CC(C)[C@@H](C)/C=C/[C@@H](C)[C@H]1CC[C@H]2C3=CC=C4C[C@@H](O)CC[C@]4(C)[C@H]3CC[C@]12C | Li23 | WST | >4 µg/mL
COc1ccc(N2CCN(C(=O)CCN3CCCc4cc(OC)ccc43)CC2)cc1 | CD4+ T-cell | MTT / absorbance | 95.67 µg/mL
Fc1ccc(-c2nc(SCCCCBr)n[nH]2)cc1 | THP-1 | MTT | >100 µg/mL
O=c1[nH]c(=O)n([C@H]2C[C@H](F)[C@@H](CO)O2)cc1C#CI | PBM | - | 25.6 µM
CN(C(=O)Oc1ccc(Cl)cc1C(=O)Nc1ccc(Br)cc1)c1ccccc1 | HepG2 cell | MTT | 945.1 µM
[N-]=[N+]=N[C@H]1C[C@H](n2cc(/C(Cl)=C\I)c(=O)[nH]c2=O)O[C@@H]1CO | PBM | - | 23.8 µM
FC(F)(F)c1ccccc1-c1nc(=S)[nH][nH]1 | THP-1 | MTT | 38.07 µg/mL
COC(=O)[C@]1(C)CCC[C@]2(C)c3ccc(C(C)C)cc3C(=O)CC12 | Jurkat cells | luminescence | >100 µM
NC(=O)c1nn(Cc2cccc(N)c2)c2ccccc12 | Huh7.5.1 | MTT | >10 µM
Fc1ccc(-c2nc(SCC3CC3)n[nH]2)cc1 | THP-1 | MTT | >100 µg/mL
Cc1cn([C@H]2C[C@H](N=[N+]=[N-])[C@@H](CO)O2)c(=O)[nH]c1=O | C3H | - | >200 µM
CC(C)NS(=O)(=O)c1nc(-c2ccc(Cl)cc2)n[nH]1 | Panc-1 | MTT | >100 µg/mL
CCC/C=C1/OC(=O)c2ccccc21 | RAW 264.7 | - | 250 µg/mL
Nc1nc2c(ncn2COCCO)c(=O)[nH]1 | TPA-stimulated BCBL-1 | - | ≥230 µM
O=C(N[C@@H](Cc1ccccc1)C(=O)CCl)OCc1ccccc1 | Jurkat cells | luminescence | 0.6 µM
Cc1cn([C@H]2C[C@H](N=[N+]=[N-])[C@@H](CO)O2)c(=O)[nH]c1=O | MRC-9 | neutral red | >100 µM
C[C@@H]1C[C@H](C)C[C@H](C)[C@@H](O)CC(=O)O[C@@H](C2CCC[C@H]2C(=O)O)C/C=C/C=C(/CN)[C@H](O)[C@@H](C)C1 | MCR-5 | MTT | 0.201 µg/mL
CN(C)C(=O)Oc1ccc(Cl)cc1C(=O)Nc1ccc(Br)cc1 | HepG2 | MTT | 342.5 µM
COC(=O)c1ccc(C(=O)NC2N=C(c3ccccc3)c3ccccc3NC2=O)c(OC)c1 | HEP-2 | - | 9.2 µM
O=[N+]([O-])c1ccc(-c2n[nH]c(=S)s2)cc1 | THP-1 | MTT | >100 µg/mL
O=C1C=C2C(=CCOC2O)O1 | Jurkat cells | luminescence | 1.1 µM
Nc1ncnc2c1c(Br)cn2[C@@H]1O[C@H](CO)[C@@H](O)[C@H]1O | PRK/E6SM | - | 0.4 µg/mL
COC(=O)[C@H](C)NP(=O)(OC[C@H]1O[C@@H](N2C(=O)NC(=O)C(C)(Br)C2OC)C[C@@H]1N=[N+]=[N-])Oc1ccc(OC)cc1 | Human vaginal epithelial | - | >400 µM
Nc1nc2c(ncn2CCC(CO)CO)c(=O)[nH]1 | TPA-stimulated BCBL-1 | - | 45 µM
COc1ccc2c(c1)CCCN2CCC(=O)N1CCN(c2ccccn2)CC1 | CD4+ T-cell | MTT / absorbance | 98.84 µg/mL
COc1c(C)c2c(c(O)c1C/C=C(\C)CCC(=O)O)C(=O)OC2 | MA-104 | - | >100 µg/mL
NC(N)=NC(=O)c1nc(Cl)c(N2CCCCCC2)nc1N | MDM | - | >10 µM
COC(=O)C(N)CCSC[C@H]1O[C@@H](n2ccc3c(N)ncnc32)[C@H](O)[C@@H]1O | PRK/E6SM | - | >400 µg/mL
COc1ccc2c(c1)CCCN2CCC(=O)N1CCN(c2ccccc2OC)CC1 | CD4+ T-cell | MTT / absorbance | 80.8 µg/mL
C=C[C@@H](C1=CC(=O)C(OC)=C(OC)C1=O)c1ccccc1 | Jurkat cells | luminescence | 2.9 µM
C=CC(CO)C(=C)Cn1cnc2c(=O)[nH]c(N)nc21 | MT-4 (T-CELL) | - | <3.57 µg/mL
CN(C)C(=O)Oc1ccc(Cl)cc1C(=O)Nc1ccc(F)cc1 | HepG2 cell | MTT | 444.5 µM
CCSc1nnc(-c2ccc(F)cc2)o1 | Panc-1 | MTT | >100 µg/mL

Repeating the final 10 entries:

| structure | cell line | read by | result |
|---|---|---|---|
| Nc1nc2c(ncn2CCC(CO)CO)c(=O)[nH]1 | TPA-stimulated BCBL-1 | - | 45 µM |
| COc1ccc2c(c1)CCCN2CCC(=O)N1CCN(c2ccccn2)CC1 | CD4+ T-cell | MTT / absorbance | 98.84 µg/mL |
| COc1c(C)c2c(c(O)c1C/C=C(\C)CCC(=O)O)C(=O)OC2 | MA-104 | - | >100 µg/mL |
| NC(N)=NC(=O)c1nc(Cl)c(N2CCCCCC2)nc1N | MDM | - | >10 µM |
| COC(=O)C(N)CCSC[C@H]1O[C@@H](n2ccc3c(N)ncnc32)[C@H](O)[C@@H]1O | PRK/E6SM | - | >400 µg/mL |
| COc1ccc2c(c1)CCCN2CCC(=O)N1CCN(c2ccccc2OC)CC1 | CD4+ T-cell | MTT / absorbance | 80.8 µg/mL |
| C=C[C@@H](C1=CC(=O)C(OC)=C(OC)C1=O)c1ccccc1 | Jurkat cells | luminescence | 2.9 µM |
| C=CC(CO)C(=C)Cn1cnc2c(=O)[nH]c(N)nc21 | MT-4 (T-CELL) | - | <3.57 µg/mL |
| CN(C)C(=O)Oc1ccc(Cl)cc1C(=O)Nc1ccc(F)cc1 | HepG2 cell | MTT | 444.5 µM |
| CCSc1nnc(-c2ccc(F)cc2)o1 | Panc-1 | MTT | >100 µg/mL |